Primary screen of a compound library

The values are deposited in ChEMBL (CHEMBL3988442, “University of Dundee, Small-Polar-MMV Screening Library” (2021)).

A: 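Phenotypic screen: M. tuberculosis growth, glucose 7H9 medium, 3 days; the read-out is not stated. Concentration: 500 µM. Direction is inferred from retests: higher values go with more growth inhibition. Size under these conditions: about 18,000 compounds, about 1,400 of them at 50% or above in at least one test.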
B: 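Growth of Mycobacterium tuberculosis over 4 days (cholesterol / DPPC medium with tyloxapol); the read-out is not stated. Compounds at 500 µM. The record gives no direction; compounds that gave an IC50 in retests scored well above the rest, so higher reads as more growth inhibition. Size under these conditions: about 18,000 compounds, about 900 of them at 50% or above in at least one test.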

Results are given as percent effect.
The record does not define 0% and 100%; most values in the screen are far below 50% and negative numbers occur (in some assays of this library far below -100).
Many other results are left out here, so strong results are more common than in the screen.
A dash means the value is not listed here; it may have been measured.

{"smiles": "NCC(N)c1ccc2c(c1)OCCO2", "stereo": "centres undefined", "A": 35.58, "B": 21.91}
{"smiles": "CCN(CC)C(=O)CCNC(=O)NC1(C)CCC1", "B": -5.125}
{"smiles": "CC(C)(C)C(=O)Nc1ccc(-n2cnnn2)cc1", "B": 8.807}
{"smiles": "CC(c1cccc(O)c1)N(C)C(=O)c1ccncc1F", "stereo": "centres undefined", "A": 26.43}
{"smiles": "C[C@@H]1CN(C(=O)c2ccc(N)nc2)C[C@@]1(O)C1CC1", "A": 13.96}
{"smiles": "O=C(CN1CCS(=O)(=O)CC1)N1CCc2sccc2C1", "A": 8.931}
{"smiles": "CCN(CC)c1ncccc1CNC(=O)C1CCCO1", "stereo": "centres undefined", "A": 18.38}
{"smiles": "CC(NCC(=O)N1CCNC1=O)c1ccc(Cl)s1", "stereo": "centres undefined", "A": 11.74}
{"smiles": "COC(=O)NCCC(=O)N(C)C(C)CC(C)C", "stereo": "centres undefined", "A": 44.61}
{"smiles": "CC(C)(C(=O)NCc1nnc[nH]1)c1cccc(Cl)c1", "B": 14.8}
{"smiles": "COC(=O)CN(Cc1ccccc1)C(=O)N(C)C", "A": -2.251}
{"smiles": "CC1CN(CC(=O)Nc2ccn(C)n2)CCCO1", "stereo": "centres undefined", "A": 2.271}
{"smiles": "Nc1ccn(CCCN2CCCC2)n1", "A": -0.8123}
{"smiles": "CCN(CC)CC(O)COc1ccc(OC)cc1", "stereo": "centres undefined", "A": -2.074}
{"smiles": "Cc1ccnc(NS(=O)(=O)N2CCCCCC2)c1", "A": 6.369}
{"smiles": "CN1CCCCCC1C(=O)NCCc1ccncc1", "stereo": "centres undefined", "A": 7.898}
{"smiles": "CN(C)C1CCN(CC(=O)NCCSc2cnn[nH]2)C1", "stereo": "centres undefined", "B": -2.286}
{"smiles": "OCC1CCN(c2ncccc2NC2CCCC2)CC1", "A": -9.552}
{"smiles": "CCN(CC)c1ncccc1CNC(=O)C1CCC1", "A": 26.68}
{"smiles": "CC(c1cccs1)N(C)CC(=O)N1CCNC1=O", "stereo": "centres undefined", "A": 10.67}
{"smiles": "CNc1snc(C)c1C(=O)Nc1ncccc1O", "A": -10.66}
{"smiles": "Cc1ccsc1C(=O)N(C)CC(=O)NC1CC1", "B": 3.04}
{"smiles": "COCCN1CCN(CC(=O)NCC(F)(F)F)CC1C", "stereo": "centres undefined", "A": -27.66}
{"smiles": "CCC1CN(CCn2cccn2)CCN1", "stereo": "centres undefined", "B": 25.18}
{"smiles": "CNc1ccnc(C(N)=O)c1", "A": -11.02}
{"smiles": "CC(C(=O)N1CCCC1)N(C)CCN1CCCC1", "stereo": "centres undefined", "A": -0.3035}
{"smiles": "CC(C)(N)CN1CCCOCC1", "A": 5.815, "B": -1.882}
{"smiles": "O=C(NCC(=O)c1cccs1)c1ccon1", "A": 37.39, "B": 31.63}
{"smiles": "CN(C)C1CCN(CC(=O)NCCc2ccnn2C)C1", "stereo": "centres undefined", "A": -2.475}
{"smiles": "CN(C)C[C@@H]1CN(c2cccc(C#N)n2)C[C@@H]1CO", "A": -10.29}
{"smiles": "Cc1c[nH]c(CN(C)C(=O)CN2CCOCC2)n1", "A": -11.92}
{"smiles": "COc1ccccc1CCNC(=O)CC1CCCO1", "stereo": "centres undefined", "A": 49.32}
{"smiles": "CN1CCN(C(=O)c2cc3c(F)cccc3s2)CC1", "A": 62.74}
{"smiles": "COc1cccc(C(O)c2nccn2C)c1", "stereo": "centres undefined", "B": 23.88}
{"smiles": "CCSc1cc(Cl)ccc1C(=O)N[C@H](C)C(=O)NC", "A": 11.97}

The first 2 entries again:

SMILES,A,B
NCC(N)c1ccc2c(c1)OCCO2 (centres undefined),35.58%,21.91%
CCN(CC)C(=O)CCNC(=O)NC1(C)CCC1,-,-5.125%